The results in this text go back to patent publication US20220220106A1, “QUINOLINE COMPOUNDS AND PHARMACEUTICAL COMPOSITIONS AND USES THEREOF” (Academy of Military Medical Sciences, priority 2019, published 2022).

Molecules are shown by their SMILES. Bounds are passed on as bounds.

In the series the test system is Enterovirus 71 (EV71) H strain. Kind of series: In vitro anti-EV71 activity (antiviral activity in RD cells, CellTiter-Glo). It counts as cell-based. Particulars: selection index SI=TD50/IC50. On the procedure: According to the mass and molecular weight of the compound to be tested, the compound to be tested was dissolved to 100 mM (mmol/L) with DMSO.
Detection of Antiviral Activity:
(1) First, the compound to be tested was diluted to 800 μM with cell maintenance solution (DMEM+2% FBS, Gibco, catalog numbers: 11995-065, 1600-044), and three-fold gradient dilution was performed to prepare 10 concentrations in total. The diluted compound was added to a 96-well plate with white wall and transparent bottom, 50 μl per well. To both the cell control group and the virus control group, an equal volume of the cell maintenance solution was added.
(2) EV71 virus (purchased from ATCC) was taken out from the −80° C. refrigerator and equilibrated to room temperature.
(3) The virus seed was diluted with a virus growth solution (DMEM+2% FBS, Gibco, catalog numbers: 11995-065, 1600-044) to 100TCID50, the diluted virus seed was added to the 96-well plate of (1), with […] per well. The same volume of the virus growth solution was added to the cell control group.
(4) RD cells (purchased from ATCC) were inoculated at a concentration of 1*10^5/mL into the 96-well plate of (1), with 100 μL per well, to reach a final volume of 200 μL per well. The final concentration of drug was 0.25 times the initial concentration.
(5) RD cells were cultured at 37° C. for 4 days for testing.
(6) The Buffer of CellTiter-Glo® luminescent cell viability assay reagent (Promega) was mixed with the substrate in the dark to prepare a working solution.
(7) The culture medium in the plate was discarded, the plate was dried by patting, 100 μL of the detection reagent was added to each well, and the 96-well plate was shaken on an orbital shaker for 4 minutes to induce cell lysis. After keeping in the dark and subjecting to signal stabilization for 15 minutes, the chemiluminescence unit was detected by using MD5 microplate reader (Molecular Devices), and the plate reading program was performed according to the CellTiter-Glo preset program.
The inhibition rate-concentration curve was fitted to S-curve by using origin8.0 software to calculate the IC50 value of the compound to be tested.
The formula for calculating the inhibition rates of drug at different dilution degrees was as follows: inhibition rate (%)=(average value of cell control group−value of experimental group)/(average value of cell control group−minimum value of experimental group)*100
The inhibition rate-concentration curve was fitted to S-curve by using origin8.0 software, and the IC50 value of the compound to be tested was calculated. The same method was used to calculate the TD50 value, and the selection index SI=TD50/IC50 was calculated according to the half maximal inhibitory concentration IC50 and the median toxic dose TD50.
(In general: Cellular ATP, detected with luciferase, serves as a proxy for viable cell number.)

On to `CC(=O)/C=C/c1cnc2ccc(-c3ccc(N)nc3)cc2c1Nc1cccc(C(F)(F)F)c1` [HTL-2-34, (E)-6-[3-(6-amino)pyridyl]-4-[3-(trifluoromethyl)phenyl]aminoquinoline-3-butenone], for which the SI came to 2.80.
As for `CC(=O)/C=C/c1cnc2ccc(-c3ccc(N)cc3)cc2c1Nc1cccc(C(F)(F)F)c1` [HTL-2-35, (E)-6-(4-amino)phenyl-4-[3-(trifluoromethyl)phenyl]aminoquinoline-3-butenone], the SI was determined as 1.39.
Next, `CC(=O)/C=C/c1cnc2ccc(-c3ccc(C)nc3)cc2c1Nc1cccc(C(F)(F)F)c1` [HTL-2-38, (E)-6-[3-(6-methyl)pyridyl]-4-[3-(trifluoromethyl)phenyl]aminoquinoline-3-butenone]: 3.06; `CC(=O)/C=C/c1cnc2ccc(-c3cn[nH]c3)cc2c1Nc1cccc(C(F)(F)F)c1` [HTL-3-26, (E)-6-(1H-4-pyrazolyl)-4-[3-(trifluoromethyl)phenyl]aminoquinoline-3-butenone]: 1.68; `Nc1ccc(-c2ccc3ncc4oc(=O)n(-c5cccc(C(F)(F)F)c5)c4c3c2)cn1` [HTL-4-32, 8-[3-(6-amino)pyridyl]-1-[3-(trifluoromethyl)phenyl]oxazolo[5,4-c]quinolin-2(1H)-one]: 2.60.
The compound `NC(=O)c1ccc(-c2ccc3ncc4oc(=O)n(-c5cccc(C(F)(F)F)c5)c4c3c2)cc1` [HTL-5-21, 8-(4-carbamoyl)phenyl-1-[3-(trifluoromethyl)phenyl]oxazolo[5,4-c]quinolin-2(1H)-one] showed an SI of 3.48.
Next, `Cc1ccc(-c2ccc3ncc4oc(=O)n(-c5cccc(C(F)(F)F)c5)c4c3c2)cn1` [HTL-5-23, 8-[3-(6-methyl)pyridyl]-1-[3-(trifluoromethyl)phenyl]oxazolo[5,4-c] quinolin-2(1H)-one]: 3.53; `Nc1cccc(Nc2ccc3ncc4ccc(=O)n(-c5cccc(C(F)(F)F)c5)c4c3c2)c1` [HTL-6-11, 9-(3-aminophenyl)imino-2-oxo-1-[3-(trifluoromethyl)phenyl]-1,2-dihydrobenzo[h][1,6]naphthyridine]: 8.52.
Under `Nc1cccc(Nc2ccc3ncc4ccc(=O)n(-c5cccc(C(F)(F)F)c5)c4c3c2)n1` [HTL-6-12, 9-[2-(6-aminopyridyl)]imino-2-oxo-1-[3-(trifluoromethyl)phenyl]-1,2-dihydrobenzo[h][1,6]naphthyridine] stands 4.22; under `CC(=O)Nc1ccc(Nc2ccc3ncc4ccc(=O)n(-c5cccc(C(F)(F)F)c5)c4c3c2)cc1` [HTL-6-27, 9-(4-acetylaminophenyl)imino-2-oxo-1-[3-(trifluoromethyl)phenyl]-1,2-dihydrobenzo[h][1,6]naphthyridine], 1.49; under `Nc1cncc(Nc2ccc3ncc4ccc(=O)n(-c5cccc(C(F)(F)F)c5)c4c3c2)c1` [HTL-6-29, 9-[3-(5-aminopyridyl)]imino-2-oxo-1-[3-(trifluoromethyl)phenyl]-1,2-dihydrobenzo[h][1,6]naphthyridine], 16.37.
Turning to `NC(=O)/C=C/c1ccc2ncc3oc(=O)n(-c4cccc(C(F)(F)F)c4)c3c2c1` [HTL-6-30, (E)-8-(2-carbamoyl-vinyl)-1-[3-(trifluoromethyl)phenyl]oxazolo[5,4-c]quinolin-2(1H)-one], the SI was determined as 1.89.
Under `NC(=O)NC/C=C/c1ccc2ncc3oc(=O)n(-c4cccc(C(F)(F)F)c4)c3c2c1` [HTL-6-34, (E)-8-(3-ureido-propenyl)-1-[3-(trifluoromethyl)phenyl]oxazolo[5,4-c]quinolin-2(1H)-one] stands 1.36; under `O=c1ccc2cnc3ccc(-c4ccc5ncccc5c4)cc3c2n1-c1cccc(C(F)(F)F)c1` [HTL-6-47, 9-(6-quinolyl)-2-oxo-1-[3-(trifluoromethyl)phenyl]-1,2-dihydrobenzo[h][1,6]naphthyridine], 0.12; under `O=c1ccc2cnc3ccc(-c4ccc(F)nc4)cc3c2n1-c1cccc(C(F)(F)F)c1` [HTL-7-01, 9-[3-(6-fluoro)pyridyl]-2-oxo-1-[3-(trifluoromethyl)phenyl]-1,2-dihydrobenzo[h][1,6]naphthyridine], 3.29.
Next, `COc1ccc(-c2ccc3ncc4ccc(=O)n(-c5cccc(C(F)(F)F)c5)c4c3c2)cn1` [HTL-7-03, 9-[3-(6-methoxy)pyridyl]-2-oxo-1-[3-(trifluoromethyl)phenyl]-1,2-dihydrobenzo[h][1,6]naphthyridine]: 3.25; `O=C1Cc2cc(-c3ccc4ncc5ccc(=O)n(-c6cccc(C(F)(F)F)c6)c5c4c3)ccc2N1` [HTL-7-04, 9-[5-(2-oxo)indolyl]-2-oxo-1-[3-(trifluoromethyl)phenyl]-1,2-dihydrobenzo[h][1,6]naphthyridine]: 0.98.
Next, `CCCC(=O)Nc1ccc(-c2ccc3ncc4ccc(=O)n(-c5cccc(C(F)(F)F)c5)c4c3c2)cn1` [HTL-7-05, 9-[3-(6-butyrylamino)pyridyl]-2-oxo-1-[3-(trifluoromethyl)phenyl]-1,2-dihydrobenzo[h][1,6]naphthyridine]: 5.77; `COc1ncc(-c2ccc3ncc4ccc(=O)n(-c5cccc(C(F)(F)F)c5)c4c3c2)cn1` [HTL-7-06, 9-[5-(2-methoxy)pyrimidyl]-2-oxo-1-[3-(trifluoromethyl)phenyl]-1,2-dihydrobenzo[h][1,6]naphthyridine]: 3.40.
The compound `CCCCC(=O)Nc1ccc(-c2ccc3ncc4ccc(=O)n(-c5cccc(C(F)(F)F)c5)c4c3c2)cn1` [HTL-7-08, 9-[3-(6-valerylamino)pyridyl]-2-oxo-1-[3-(trifluoromethyl)phenyl]-1,2-dihydrobenzo[h][1,6]naphthyridine] had an SI of 3.50.
Next, `O=C(Cc1ccccc1)Nc1ccc(-c2ccc3ncc4ccc(=O)n(-c5cccc(C(F)(F)F)c5)c4c3c2)cn1` [HTL-7-10, 9-[3-(6-phenylacetylamino)pyridyl]-2-oxo-1-[3-(trifluoromethyl)phenyl]-1,2-dihydrobenzo[h][1,6]naphthyridine]: 1.90; `Cc1noc(C)c1-c1ccc2ncc3ccc(=O)n(-c4cccc(C(F)(F)F)c4)c3c2c1` [HTL-7-12, 9-[4-(3,5-dimethyl)isoxazolyl]-2-oxo-1-[3-(trifluoromethyl)phenyl]-1,2-dihydrobenzo[h][1,6]naphthyridine]: above 5.42; `O=c1ccc2cnc3ccc(C4=CCC5(CC4)OCCO5)cc3c2n1-c1cccc(C(F)(F)F)c1` [HTL-7-13, 9-(1,4-dioxa-spiro[4.5]dec-7-en-8-yl)-2-oxo-1-[3-(trifluoromethyl)phenyl]-1,2-dihydrobenzo[h][1,6]naphthyridine]: 7.59.
`O=C(Nc1ccc(-c2ccc3ncc4ccc(=O)n(-c5cccc(C(F)(F)F)c5)c4c3c2)cn1)OCc1ccccc1` [HTL-7-14, 9-[3-(6-benzyloxyamido)pyridyl]-2-oxo-1-[3-(trifluoromethyl)phenyl]-1,2-dihydrobenzo[h][1,6]naphthyridine] gave an SI of 0.04.
In turn, `CN1CCN(c2ccc(-c3ccc4ncc5ccc(=O)n(-c6cccc(C(F)(F)F)c6)c5c4c3)cn2)CC1` [HTL-7-17, 9-{3-[6-(4-methylpiperazin-1-yl)pyridyl]}-2-oxo-1-[3-(trifluoromethyl)phenyl]-1,2-dihydrobenzo[h][1,6]naphthyridine] showed an SI of 1.80.
Take `O=c1ccc2cnc3ccc(-c4ccc(N5CCOCC5)nc4)cc3c2n1-c1cccc(C(F)(F)F)c1` [HTL-7-18, 9-[3-(6-morpholin-4-yl)pyridyl]-2-oxo-1-[3-(trifluoromethyl)phenyl]-1,2-dihydrobenzo[h][1,6]naphthyridine]: the SI is 1.62.
As to `O=c1ccc2cnc3ccc(-c4ccc(N5CCCC5)nc4)cc3c2n1-c1cccc(C(F)(F)F)c1` [HTL-7-20, 9-[3-(6-pyrrolidinyl)pyridyl]-2-oxo-1-[3-(trifluoromethyl)phenyl]-1,2-dihydrobenzo[h][1,6]naphthyridine], the SI came out at 17.90.
`CC(C)(C)OC(=O)Nc1ccc(-c2ccc3ncc4ccc(=O)n(-c5cccc(C(F)(F)F)c5)c4c3c2)cn1` [HTL-7-21, 9-[3-(6-tert-butoxycarbonylamino)pyridyl]-2-oxo-1-[3-(trifluoromethyl)phenyl]-1,2-dihydrobenzo[h][1,6]naphthyridine] came in with an SI of 0.33.
